According to patent publication US9944598B2, “Mono- or di-substituted indole derivatives as dengue viral replication inhibitors” (priority 2014, dated 2018):

What was measured:
Format in all cases: cell-based, Dengue virus
DENV-1 strain TC974#666 = assay: Tetravalent RT-qPCR assay Protocol A, serotype 1; details: serotype 1 TC974#666, ratio CC50 / EC50
Description: (§1) The antiviral activity of the compounds of the invention was tested against DENV-1 strain TC974#666 (NCPV), DENV-2 strain 16681, DENV-3 strain H87 (NCPV) and DENV-4 strains H241 (NCPV) and EDEN (SG/06K2270DK1/2005; GenBank accession number QG398256) in a RT-qPCR assay. Therefore, Vero cells were infected with either DENV-1, or -2, or -3, or -4 in the presence or absence of test compounds. At day 3 post-infection, the cells were lysed and cell lysates were used to prepare cDNA of both a viral target (the 3′UTR of DENV; table 2) and a cellular reference gene (β-actin, table 2). Subsequently, a duplex real time PCR was performed on a Lightcycler480 instrument. The generated Cp value is inversely proportional to the amount of RNA expression of these targets. Inhibition of DENV replication by a test compound result in a shift of Cp's for the 3′UTR gene. On the other hand, if a test compound is toxic to the cells, a similar effect on β-actin expression will be observed. The comparative ΔΔCp method is used to calculate EC50, which is based on the relative gene expression of the target gene (3′UTR) normalized with the cellular housekeeping gene (β-actin). In addition, CC50 values were determined based on the Cp values acquired for the housekeeping gene β-actin.
(§2) The culture medium consisted of minimal essential medium supplemented with 2% of heat-inactivated fetal calf serum, 0.04% gentamycin (50 mg/mL) and 2 mM of L-glutamine. Vero cells, obtained from ECACC, were suspended in culture medium and 75 μL/well was added in 96-well plates (10000 cells/well), which already contain the antiviral compounds. Typically, these plates contain a 4-fold serial dilution of 9 dilution steps of the test compound at 200 times the final concentration in 100% DMSO (500 nL; final concentration range: 25 μM-0.00038 μM). In addition, each plate contains wells which are assigned as virus controls (containing cells and virus in the absence of compound) and cell controls (containing cells in the absence of virus and compound). Once the cells were added in the plates, the plates were incubated in a fully humidified incubator (37° C., 5% CO2) until the next day. Then, DENV-1 strain TC974#666, DENV-2 strain 16681, DENV-3 strain H87 or DENV-4 strains H241 or EDEN were added. […] In parallel, 25 μL of culture medium was added to the cell controls. Next, the plates were incubated for 3 days in a fully humidified incubator (37° C., 5% CO2). After 3 days, the supernatant was removed from the wells and the cells were washed twice with ice-cold PBS (˜100 μL). The cell pellets within the 96-well plates were stored at −80° C. for at least 1 day. Next, RNA was extracted using the Cells-to-CT™ lysis kit, according to the manufacture's guideline (Applied Biosystems). The cell lysates can be stored at −80° C. or immediately used in the reverse transcription step.
(§3) In preparation of the reverse transcription step, mix A (table 3A) was prepared and 7.57 μL/well was dispensed in a 96-well plate. After addition of 5 μL of the cell lysates, a five minute denaturation step at 75° C. was performed (table 3B). Afterwards, 7.43 μL of mix B was added (table 3C) and the reverse transcription step was initiated (table 3D) to generate cDNA.
(§4) Finally, a RT-qPCR mix was prepared, mix C (table 4A), dispensed in 96-well LightCycler qPCR plates to which 3 μL of cDNA was added and the qPCR was performed according to the conditions in table 4B on a LightCycler 480.
(§5) Using the LightCycler software and an in-house LIMS system, dose response curves for each compound were calculated and the half maximal effective concentration (EC50) and the half maximal cytotoxic concentration (CC50) were determined (Tables 6-9).

DENV-3 strain H87 = assay: Tetravalent RT-qPCR assay Protocol A, serotype 3; details: serotype 3 H87
Description: as §1, §2, §3, §4, §5

[1] = test system: DENV-2 16681 strain labeled with eGFP; assay: DENV-2 antiviral assay (eGFP fluorescence, Vero cells); details: SI=CC50/EC50, DENV-2 antiviral assay
Description: The antiviral activity of all the compounds of the invention was tested against DENV-2 16681 strain which was labeled with enhanced green fluorescent protein (eGPF). The culture medium consists of minimal essential medium supplemented with 2% of heat-inactivated fetal calf serum, 0.04% gentamycin (50 mg/mL) and 2 mM of L-glutamine. Vero cells, obtained from ECACC, were suspended in culture medium and 25 μL was added to 384-well plates (2500 cells/well), which already contain the antiviral compounds. Typically, these plates contain a 4-fold serial dilution of 9 dilution steps of the test compound at 200 times the final concentration in 100% DMSO (200 nL). In addition, each compound concentration is tested in quadruplicate (final concentration range: 25 μM-0.00038 μM). Finally, each plate contains wells which are assigned as virus controls (containing cells and virus in the absence of compound), cell controls (containing cells in the absence of virus and compound) and medium controls (containing medium in the absence of cells, virus and compounds). To the wells assigned as medium control, 25 μL of culture medium was added instead of Vero cells. Once the cells were added to the plates, the plates were incubated for 30 minutes at room temperature to allow the cells to distribute evenly within the wells. Next, the plates were incubated in a fully humidified incubator (37° C., 5% CO2) until the next day. Then, DENV-2 strain 16681, labeled with eGFP, was added at a multiplicity of infection (MOI) of 0.5. Therefore, 15 μL of virus suspension was added to all the wells containing test compound and to the wells assigned as virus control. In parallel, 15 μL of culture medium was added to the medium and cell controls. Next, the plates were incubated for 3 days in a fully humidified incubator (37° C., 5% CO2). At the day of the read out, the eGFP fluorescence was measured using an automated fluorescence microscope at 488 nm (blue laser). Using an in-house LIMS system, inhibition dose response curves for each compound were calculated and the half maximal effective concentration (EC50) was determined. Therefore, the percent inhibition (I) for every test concentration is calculated using the following formula: I=100*(ST−SCC)/(SVC−SCC); ST, SCC and SVC are the amount of eGFP signal in the test compound, cell control and virus control wells, respectively. The EC50 represents the concentration of a compound at which the virus replication is inhibited with 50%, as measured by a 50% reduction of the eGFP fluorescent intensity compared to the virus control. The EC50 is calculated using linear interpolation (Table 1).

DENV-4 strain H241 = assay: Tetravalent RT-qPCR assay Protocol A, serotype 4 H241
Description: as §1, §2, §3, §4, §5

SMILES	SI (DENV-1 strain TC974#666)	SI (DENV-3 strain H87)	SI [1]	SI (DENV-4 strain H241)
COc1cc(NC(C(=O)c2c[nH]c3c(C)c(F)ccc23)c2ccc(Cl)cc2OC)cc(OCCO)c1 (single isomer, unassigned) [Compound 2A, 2-(4-chloro-2-methoxyphenyl)-1-(6-fluoro-7-methyl-1H-indol-3-yl)-2-((3-(2-hydroxyethoxy)-5-methoxyphenyl)amino)ethanone]	628	76	5166	7
COc1cc(NC(C(=O)c2c[nH]c3cc(OC)c(C)cc23)c2ccc(Cl)cc2OC)cc(OCCO)c1 (single isomer, unassigned) [Compound 6A, 2-(4-chloro-2-methoxyphenyl)-2-((3-(2-hydroxyethoxy)-5-methoxyphenyl)amino)-1-(6-methoxy-5-methyl-1H-indol-3-yl)ethanone]	1348	106	6520	25
COc1cc(NC(C(=O)c2c[nH]c3cc(F)c(F)cc23)c2ccc(Cl)cc2OC)cc(OCCO)c1 (single isomer, unassigned) [Compound 9A, 2-(4-chloro-2-methoxyphenyl)-1-(5,6-difluoro-1H-indol-3-yl)-2-((3-(2-hydroxyethoxy)-5-methoxyphenyl)amino)ethanone]	934	–	–	–
COc1cc(NC(C(=O)c2c[nH]c3cc(OC)c(F)cc23)c2ccc(Cl)cc2OC)cc(OCCO)c1 (single isomer, unassigned) [Compound 7A, 2-(4-chloro-2-methoxyphenyl)-1-(5-fluoro-6-methoxy-1H-indol-3-yl)-2-((3-(2-hydroxyethoxy)-5-methoxyphenyl)amino)ethanone]	282	66	5569	12
COc1cc(NC(C(=O)c2c[nH]c3c(C)cc(F)cc23)c2ccc(Cl)cc2OC)cc(OCCO)c1 (single isomer, unassigned) [Compound 8A, 2-(4-chloro-2-methoxyphenyl)-1-(5-fluoro-7-methyl-1H-indol-3-yl)-2-((3-(2-hydroxyethoxy)-5-methoxyphenyl)amino)ethanone]	368	47	3457	11
COc1cc(NC(C(=O)c2c[nH]c3cc(Cl)ccc23)c2ccc(Cl)cc2OC)cc(OCCO)c1 (single isomer, unassigned) [Compound 4A, 1-(6-chloro-1H-indol-3-yl)-2-(4-chloro-2-methoxyphenyl)-2-((3-(2-hydroxyethoxy)-5-methoxyphenyl)amino)ethanone]	447	52	6965	10
COc1cc(NC(C(=O)c2c[nH]c3c(F)cc(C)cc23)c2ccc(Cl)cc2OC)cc(OCCO)c1 (single isomer, unassigned) [Compound 10A, 2-(4-chloro-2-methoxyphenyl)-1-(7-fluoro-5-methyl-1H-indol-3-yl)-2-((3-(2-hydroxyethoxy)-5-methoxyphenyl)amino)ethanone]	290	47	1416	8
COc1cc(NC(C(=O)c2c[nH]c3cc(OC)ccc23)c2ccc(Cl)cc2OC)cc(OCCO)c1 (single isomer, unassigned) [Compound 5A, 2-(4-chloro-2-methoxyphenyl)-2-((3-(2-hydroxyethoxy)-5-methoxyphenyl)amino)-1-(6-methoxy-1H-indol-3-yl)ethanone]	392	42	7057	13
COc1cc(NC(C(=O)c2c[nH]c3cc(F)ccc23)c2ccc(Cl)cc2OC)cc(OCCO)c1 (single isomer, unassigned) [Compound 1A, 2-(4-chloro-2-methoxyphenyl)-1-(6-fluoro-1H-indol-3-yl)-2-((3-(2-hydroxyethoxy)-5-methoxyphenyl)amino)ethanone]	530	28	5395	13
COc1cc(NC(C(=O)c2c[nH]c3c(F)c(F)ccc23)c2ccc(Cl)cc2OC)cc(OCCO)c1 (single isomer, unassigned) [Compound 11B, 2-(4-chloro-2-methoxyphenyl)-1-(6,7-difluoro-1H-indol-3-yl)-2-((3-(2-hydroxyethoxy)-5-methoxyphenyl)amino)ethanone]	202	48	3526	7
COc1cc(NC(C(=O)c2c[nH]c3c(C)c(Cl)ccc23)c2ccc(Cl)cc2OC)cc(OCCO)c1 (single isomer, unassigned) [Compound 3A, 2-(4-chloro-2-methoxyphenyl)-1-(6-chloro-7-methyl-1H-indol-3-yl)-2-((3-(2-hydroxyethoxy)-5-methoxyphenyl)amino)ethanone]	721	104	20070	17
